Record: PubChem BioAssay AID1224833 (University of Georgia, 2016)
Shown is one part, drawn at random, of about 12,000 reagents. About 5,600 of all reagents (46%) were called active. 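Active calls cover z-scores past 1 in both directions, so they include lowered as well as raised rotavirus replication.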

Purpose: 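Host factors restraining rotavirus as candidate antiviral genes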 (primary screen)
Cell system: monkey MA104 kidney cells
Reagents: siRNA pool against human genes, 50 nM
Duration: 48 h knock-down before infection; read 24 h after infection
Challenge: infection with rotavirus strain RV3 two days after transfection; infectious dose for this stage not given
Measurement: 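Rotavirus antigen per well by fluorescent immunoassay, normalised to non-targeting control wells on each plate and given as a standard z-score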
Direction: z-score vs non-targeting control: higher = more rotavirus replication than with non-targeting control
Active means: In these data the active calls have z-score vs non-targeting control at about -1 or lower, or at about 1 or higher
Meaning of the calls: active = z-score beyond 1 either way; inactive = z-score within 1 of zero

gene | z-score vs non-targeting control | Outcome
ZNF268 | -0.523 | inactive
ADPRM | 1.26 | active
ST8SIA1 | 1.09 | active
FAM135B | 2.11 | active
COX7A1 | -0.982 | inactive
S100A11 | -0.0359 | inactive
ZFPM1 | -1.21 | active
PRPF3 | -0.519 | inactive
TSHZ2 | -1.05 | active
ABCC11 | -2.79 | active
TREML4 | 1.47 | active
MTA3 | -0.123 | inactive
TSN | -1.53 | active
TMEM26 | -0.0856 | inactive
OXA1L | -1.14 | active
ANXA8L1 | -0.722 | inactive
DICER1 | -0.218 | inactive
MRPL57 | -0.966 | inactive
REV1 | -0.968 | inactive
IRF4 | -1.87 | active
ARHGEF25 | 0.117 | inactive
RAB24 | -1.69 | active
PRR15L | 1.33 | active
OR8G5 | -0.137 | inactive
STARD6 | -0.793 | inactive
OR2G3 | 0.503 | inactive
DYNLL2 | -1.53 | active
PWP1 | -0.104 | inactive
KPNA6 | -1 | active
CXCL3 | -1.81 | active
ELFN1 | -3.67 | active
DHX33 | -0.559 | inactive
WNK1 | -2.21 | active
ANKRA2 | 0.0268 | inactive
ASH1L | 0.179 | inactive
TGM7 | -1.47 | active
SHARPIN | 0.254 | inactive
TAS2R50 | 0.851 | inactive
SGCB | 0.228 | inactive
OR4D5 | 1.7 | active
LMO3 | 0.28 | inactive
L3MBTL2 | -0.957 | inactive
GPR174 | 0.725 | inactive
ZBTB7C | -1.17 | active

Not a retest: 10 of the entries above.
gene | z-score vs non-targeting control | Outcome
ST8SIA1 | 1.09 | active
FAM135B | 2.11 | active
COX7A1 | -0.982 | inactive
S100A11 | -0.0359 | inactive
ZFPM1 | -1.21 | active
PRPF3 | -0.519 | inactive
TSHZ2 | -1.05 | active
ABCC11 | -2.79 | active
TREML4 | 1.47 | active
MTA3 | -0.123 | inactive

Next entries follow.
gene | z-score vs non-targeting control | Outcome
CFAP95 | -1.41 | active
FYCO1 | 0.235 | inactive
DDX49 | -2.04 | active
LYPD5 | -1.37 | active
SPTA1 | -1.58 | active
TENT4A | -1.83 | active
DGCR6 | -0.031 | inactive
MPPED2 | 0.746 | inactive
COL9A2 | -0.716 | inactive
CENPN | -1.8 | active
OR13C3 | -1.36 | active
H3-4 | -0.415 | inactive
BNIP1 | -1.61 | active
GPR3 | -0.542 | inactive
LMBR1L | 0.698 | inactive
TSPAN10 | -0.404 | inactive
AP2A2 | -0.38 | inactive
CAVIN1 | -2.15 | active
TDG | -1.24 | active
MRPL36 | -1.84 | active
MAPK8IP1 | -2.38 | active
CEP44 | 0.345 | inactive
DOK7 | 1.06 | active
DEFB115 | -0.471 | inactive
NPRL3 | -1.34 | active
KANSL2 | -1.2 | active
FDCSP | -1.29 | active
DOK4 | 0.0819 | inactive
BBS12 | -1.89 | active
MXI1 | 0.863 | inactive
DPYS | -0.786 | inactive
JMY | -0.289 | inactive
MYRF | 0.169 | inactive
SNX13 | -0.577 | inactive
ESD | 1.34 | active
LRRC18 | -0.538 | inactive
SLC13A4 | 1.56 | active
AADAT | 1.07 | active
OR10A6 | -0.66 | inactive
SLC60A2 | 2.11 | active
ZNF521 | 0.69 | inactive
NOS3 | -0.491 | inactive
MAGEB2 | -0.509 | inactive
BCAT1 | -0.712 | inactive
VCPKMT | -0.0193 | inactive
SLX1B | -2.33 | active
PSMC2 | 1.38 | active
OGFOD1 | 1.31 | active
HSPB1 | -1.1 | active
CYFIP2 | 0.25 | inactive
ACAA2 | -0.567 | inactive
FAM43B | 1.9 | active
GCDH | 1.06 | active
RAB27A | -0.725 | inactive
ANKRD13A | 0.147 | inactive
RBSN | -0.543 | inactive
OR3A1 | 0.641 | inactive
SLC26A4 | -1.21 | active
KRT1 | -0.65 | inactive
DRD3 | -0.806 | inactive
CCDC18 | 0.491 | inactive
UGT2A1 | -0.892 | inactive
CCNT1 | -1.69 | active
NDUFB3 | -1.28 | active
PSG8 | -1.04 | active
EIF5 | -0.608 | inactive
